Results taken from patent publication US20210292393A1 (published 2021).

Key:
[1] = molecular target: SARS-CoV-2 full-length spike protein on pseudotyped lentivirus (SARS-CoV-2); test: cell-based or functional assay
SARS-CoV-2 spike protein = molecular target: T1, SARS-CoV-2 spike protein (SARS-CoV-2); test: HT-SPR, Carterra LSA; mAb coupled to chip, antigen injected; 1:1 fit
T1 construct: also called SARS-CoV-2 S protein; antigen of interest

[2] = molecular target: T2, SARS-CoV-2 spike protein (nCoV-S Spike Protein Trimer, NIH) (SARS-CoV-2); test: HT-SPR (Carterra LSA), mAb on chip, SARS-CoV-2 spike protein titrated, 25 C
T2 construct: also called S protein

[3] = molecular target: T2, SARS-CoV-2 spike protein (nCoV-S Spike …); test: HT-SPR (Carterra LSA), mAb on chip, SARS-CoV-2 spike protein titrated, 37 C

B1: anti-SARS-CoV-2 antibody 540 (antibody, V domains shown)
VH: EVQLVESGGGLVKPGGSLRLSCAASGFTFSNAWMSWVRQAPGKGLEWVGHIKSKTDGGTTDYAAPVKGRFTISRDDSKNTLYLQMNSLKTEDTAVYYCTREPYYFDYWGQGTLVTVSS
VL: [gap - about 100 residues]GQGTKLEIKR
- IC50 (pseudoneutralization) [1]: > 50 µg/mL
- IC80 (pseudoneutralization) [1]: > 50 µg/mL

B2: antibody 540 (antibody, V domains shown)
VH: EVQLVESGGGLVKPGGSLRLSCAASGFTFSNAWMSWVRQAPGKGLEWVGHIKSKTDGGTTDYAAPVKGRFTISRDDSKNTLYLQMNSLKTEDTAVYYCTREPYYFDYWGQGTLVTVSS
VL: [gap - about 100 residues]GQGTKLEIKR
notes: also called mAb 540
- kon (SARS-CoV-2 spike protein): 92500 M⁻¹ s⁻¹

B3: antibody 540 (antibody, V domains shown)
VH: EVQLVESGGGLVKPGGSLRLSCAASGFTFSNAWMSWVRQAPGKGLEWVGHIKSKTDGGTTDYAAPVKGRFTISRDDSKNTLYLQMNSLKTEDTAVYYCTREPYYFDYWGQGTLVTVSS
VL: [gap - about 100 residues]GQGTKLEIKR
notes: also called mAb 540
- Kd [2]: 0.122 nM
- Kd [3]: 0.905 nM
